Experimental data published in US6514692B2, “Method for treatment of immunodeficiency virus infection” (priority 1996, dated 2003).
Read-outs that look alike come from different tables or passages of the source.

Test system: SK1 isolate of HIV-1
From the text: ME180 cells, a cervical epithelial cell line, were obtained from the American Type Culture Collection. These cells were thawed from liquid nitrogen and grown in RPMI 1640 medium supplemented with 10t fetal bovine serum, glutamine and antibiotics. The cells were adherent and were trypsinized (0.5% trypsin in HBSS) to remove them from the flask for passaging and use in assays. For use in the microtiter transmission inhibition assay, ME180 cells were trypsinized, washed and seeded in 96-well flat bottom microtiter plates (COSTAR) at a density of 5×10^3 cells per well. The cells were incubated at 37° C. for 24 hours prior to the tart of the assay. H9 cells chronically infected with he SK1 isolate of HIV-1 were treated with 200 μg/ml mitomycin C for 60 minutes at 37° C. After treatment the cells were washed three times with tissue culture medium. The chronically infected lymphocytes were added to each well at a density of 2×10^4 cells per well. […] At six days post-co-cultivation, the supernatant was removed from the wells and evaluated for the quantity of p24 antigen by ELISA. […] The amount of virus production in wells treated with various concentrations of the peptides was evaluated with appropriate cell and virus controls. […]

**Q.** With dextran sulfate as the substance, how does the “TI (toxicity index, TC50/IC50)” value (no mucin) read?
**A.** TI = 500

**Q.** And the “TI (toxicity index, TC50/IC50)” value (with 150 μg/ml pig mucin)?
**A.** TI = 500
